Laboratory results as given in paper PMC6613765 (Journal of Virology, 2019).

Tested on: Vero E6 cells
Conditions: read-out: MERS-CoV CC50

With Monensin sodium the CC50 was > 20 µM.
